Measurements as given in PMC12734540, “Unraveling the Potential Antiviral Activity of Isoxazoline-Carbocyclic Monophosphate Nucleotides Against Echovirus 11” (Microorganisms, 2025).

Tested on: Echovirus 11
Experiment: Post-infection CPE inhibition assay (crystal violet)
Assay type: cell-based, Echovirus 11 lineage 1
Details: CC50 by MTS / EC50 by CPE inhibition, VERO 76 cells

| Compound | Selectivity Index (SI = CC50/EC50) |
| --- | --- |
| O=P(O)(O)OC1CC(n2cnc3c(Cl)ncnc32)C2ON=C(c3c4ccccc4c(Br)c4ccccc34)C12 (centres unmarked) [4b] | 2.31 |
| O=P(O)(O)OC1CC(n2cnc3c(Cl)ncnc32)C2C(c3c4ccccc4c(Br)c4ccccc34)=NOC12 (centres unmarked) [4a] | 8.99 |
